Results: patent publication US20210255174

Columns and labels:
[1] = system: BoNT/A cleavable peptide #115: [5-Fam]TRIDEANQRATK[DABCYL]-Nle
[2] = system: BoNT/A cleavable peptide #116: [4-Mu]TRIDEANQRATK[DABCYL]-Nle

**Q.** “Botulinum neurotoxin type A (BoNT/A), printed without saying whether complex, holotoxin or light chain” was tested. Which KM [1] did it give?
**A.** Its KM is 4.99 µM.

**Q.** And the KM [2]?
**A.** Its KM is 2.62 µM.
